# From paper PMC6318325, “The conformational changes coupling ATP hydrolysis and translocation in a bacterial DnaB helicase” (Nature Communications, 2019)
# How the values were obtained:
# [1] = molecular target: T1, HpDnaB replicative helicase (Helicobacter pylori) (UniProt O25916); test: fluorescence anisotropy; settings: 0.5 mM ADP, 5 mM MgCl2, not saturated, Bmax fixed at 250, Hill fit h 0.5361; Anisotropy: 20 mM Hepes pH 7.5, 5 mM MgCl2, 50 mM potassium acetate, 5% glycerol, 0.2 mg/ml BSA, 0.5 mM nucleotide, 1 nM DNA, 0-8 uM DnaB (dodecamer); recombinant protein; label: 5'-FAM; single-stranded DNA
# T1 sequence (looked up, limits assumed): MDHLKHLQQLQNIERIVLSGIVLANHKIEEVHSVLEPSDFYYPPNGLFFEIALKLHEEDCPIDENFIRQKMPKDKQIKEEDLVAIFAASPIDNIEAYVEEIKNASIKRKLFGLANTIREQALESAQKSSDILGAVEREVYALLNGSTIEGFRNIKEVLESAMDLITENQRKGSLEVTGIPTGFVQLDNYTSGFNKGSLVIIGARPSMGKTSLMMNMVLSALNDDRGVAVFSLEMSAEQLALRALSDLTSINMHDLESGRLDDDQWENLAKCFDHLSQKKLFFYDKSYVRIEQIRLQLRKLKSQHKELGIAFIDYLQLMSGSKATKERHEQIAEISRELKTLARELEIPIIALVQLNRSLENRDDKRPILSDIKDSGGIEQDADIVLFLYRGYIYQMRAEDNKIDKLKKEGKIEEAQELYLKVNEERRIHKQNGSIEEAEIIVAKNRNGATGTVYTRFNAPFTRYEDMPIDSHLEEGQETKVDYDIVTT
# [2] = molecular target: T1, HpDnaB replicative helicase (Helicobacter pylori); test: solid-state NMR (31P-31P); settings: ATP added (ADP found bound in the complex), excess DnaB:ADP without DNA remains; NMR: protein buffer 2.5 mM sodium phosphate pH 7.5, 130 mM NaCl, 278 K; recombinant protein; single-stranded DNA
# [3] = molecular target: T1, HpDnaB replicative helicase (Helicobacter pylori); test: solid-state NMR (31P, 13C); settings: ADP, substoichiometric DNA binding, metal ion absent in the DNA-bound state; NMR: protein buffer 2.5 mM sodium phosphate pH 7.5, 130 mM NaCl, 278 K; recombinant protein; single-stranded DNA
Sequence,Kd [1],binding result [2],binding result [3]
TTTTTTTTTTTTTTTTTTTT [5'-FAM-(dT)20],5.1 µM,,
TTTTTTTTTTTTTTTTTTTT [(dT)20],,binds,binds more weakly

# Construct, isoform or probe ends are uncertain for at least one entry. For part of these data: The comparison behind a weaker result is the experiment's own reference, which may not be listed here. Protein sequences can lack the tags named with them. For part of these data: At least one verdict was read from the data and is not stated in words by the source.
